Molecular target: SARS-CoV-2 PT RBD (residues 319-541) (SARS-CoV-2, UniProt P0DTC2 319-541)
Assay: SPR

B1: rabbit ACE2 Q34H (protein)
chain: QSTIEELAKTFLEKFNHEAEDLSYQSALASWDYNTNITEENVQKMNDAEAKWSAFYEEQSKLAKTYPSQEVQNLTVKRQLQALQQSGSSALSADKSKQLNTILSTMSTIYSTGKVCNQSNPQECFLLEPGLDEIMAKSTDYNERLWAWEGWRSVVGKQLRPLYEEYVVLKNEMARANNYEDYGDYWRADYEAEGADGYDYSRSQLIDDVERTFSEIKPLYEQLHAFVRTKLMDAYPSRISPTGCLPAHLLGDMWGRFWTNLYSLTVPFGQKPNIDVTDTMVNQGWDAERIFKEAEKFFVSVGLPSMTQGFWENSMLTEPGDGRKVVCHPTAWDLGKGDFRIKMCTKVTMDNFLTAHHEMGHIQYDMAYATQPFLLRNGANEGFHEAVGEIMSLSAATPEHLKSIGLLPYDFHEDNETEINFLLKQALTIVGTLPFTYMLEKWRWMVFKGEIPKEQWMQKWWEMKREIVGVVEPMPHDETYCDPAALFHVANDYSFIRYYTRTIYQFQFQEALCQAAQHEGPLHKCDISNSTEAGQKLLNMLRLGRSEPWTLALENVVGAKNMDVRPLLNYFEPLFTWLKEQNRNSFVGWSTEWTPYAD
Binder B1 has a Kd of 113 nM.

— article PMC10870819 (2023)
